The source of these data is US20220315628A1.

Changes are numbered by the printed parent chain.

Assay [1] addresses F1G2 peptide (XGVECK-biotin with X = Phe). In words: SPR; KD for the Phe peptide divided by KD for the Phe peptide.
The target in assay [2] is Y1G2 peptide (XGVECK-biotin with X = Tyr). In words: SPR; KD for the Tyr peptide divided by KD for the Trp peptide.
Assay [3] shares this target. In words: SPR dissociation curves; biotinylated peptide on streptavidin chip.
The target in assay [4] is F1G2 peptide (XGVECK-biotin with X = Phe). Described as above.
The target of assay [5] is W1G2 peptide (XGVECK-biotin with X = Trp). The assay is described as above.
The target of assay [6] is F1G2 peptide (XGVECK-biotin with X = Phe). In words: in vitro surface binding assays (SPR).
Assay [7] has as its target Y1G2 peptide (XGVECK-biotin with X = Tyr). In words: SPR; KD for the Tyr peptide divided by KD for the Phe peptide.
Assay [8] addresses W1G2 peptide (XGVECK-biotin with X = Trp). In words: SPR; KD for the Trp peptide divided by KD for the Tyr peptide.
Assay [9] concerns the target F1G2 peptide (XGVECK-biotin with X = Phe). In words: SPR; KD for the Phe peptide divided by KD for the Trp peptide.
In assay [10] the target is W1G2 peptide (XGVECK-biotin with X = Trp). In words: SPR; KD for the Trp peptide divided by KD for the Phe peptide.
Assay [11] has the same target. In words: SPR; KD for the Trp peptide divided by KD for the Trp peptide.
The target of assay [12] is F1G2 peptide (XGVECK-biotin with X = Phe). In words: SPR dissociation curves.
For assay [13] the target is unchanged. In words: SPR; KD for the Phe peptide divided by KD for the Tyr peptide.
In assay [14] the target is Y1G2 peptide (XGVECK-biotin with X = Tyr). In words: SPR; KD for the Tyr peptide divided by KD for the Tyr peptide.
The target is the same in assay [15].
Assay [16] deals with F1G2 peptide (XGVECK-biotin with X = Phe).
Assay [17] concerns the target W1G2 peptide (XGVECK-biotin with X = Trp).
For assay [18] the target is unchanged. In words: SPR dissociation curves.

B1: A. tumefaciens ClpS2 [Pro34 Met35 Ser36], expressed in and purified from E. coli (designed binder)
chain: MGHHHHHHENLYFQGSDSPVDLKPKPKVKPKLERPKLYKVMLLNDDYTPMSFVTVVLKAVFRMSEDTGRRVMMTAHRFGSAVVVVCERDIAETKAKEATDLGKEAGFPLMFTTEPEE
Molecule B1 displayed a Selectivity for Phe, Phe/Phe in assay [1] of 1. The same molecule came in with a Selectivity for Tyr, Tyr/Trp in [2] of 0.88. For the same molecule, the figures for the koff in assay [3], in [4] and in assay [5] were 0.5 s⁻¹, 0.1 s⁻¹ and 0.76 s⁻¹, respectively. The molecule further came in with a fold tighter binding relative to wild-type ClpS in assay [6] of 7 fold. In assay [7], this molecule gave a Selectivity for Tyr, Tyr/Phe of 6.43. The molecule also displayed a Selectivity for Trp, Trp/Tyr in assay [8] of 1.13. In addition, the Selectivity for Phe, Phe/Trp in [9] was 0.14. The Selectivity for Trp, Trp/Phe in assay [10] was 7.28. The molecule also had a Selectivity for Trp, Trp/Trp in assay [11] of 1. The same molecule gave a fold slowing of the dissociation rate over the wild-type protein in [12] of 9.4 fold. Further, in [13], the Selectivity for Phe, Phe/Tyr amounted to 0.16. Besides, in assay [14], the Selectivity for Tyr, Tyr/Tyr amounted to 1. Further, the dissociation constant Kd was determined as 11.6 µM in assay [15], 1.8 µM in assay [16] and 13.1 µM in assay [17].

B2: A. tumefaciens ClpS2 [Cys34 Pro35 Ser36], expressed in and purified from E. coli (designed binder)
chain: B1 chain with P49C, M50P
As for B2, the Selectivity for Phe, Phe/Phe in assay [1] came out at 1. The molecule further showed a Selectivity for Tyr, Tyr/Trp in assay [2] of 12.9. Besides, the values for the koff in [3], in assay [4] and in assay [5] were 0.05 s⁻¹, 0.03 s⁻¹ and 0.03 s⁻¹, respectively. Further, the Selectivity for Tyr, Tyr/Phe in [7] was 9.82. Moreover, the Selectivity for Trp, Trp/Tyr in [8] stood at 0.08. This molecule also returned a Selectivity for Phe, Phe/Trp in assay [9] of 1.32. Besides, the Selectivity for Trp, Trp/Phe in assay [10] is 0.76. The same molecule had a Selectivity for Trp, Trp/Trp in [11] of 1. For the same molecule, the fold slowing of the dissociation rate over wild-type was found to be 27.9 fold in assay [12] and 51.3 fold in [18]. In assay [13], this molecule displayed a Selectivity for Phe, Phe/Tyr of 0.1. The molecule also yielded a Selectivity for Tyr, Tyr/Tyr in [14] of 1. For the same molecule, the Kd in [15] turned out to be 36.1 µM; in assay [16], 3.7 µM; in assay [17], 2.8 µM.
